Results published in article PMC13424409.
The exact form of at least one protein or probe is not confirmed.

System: MBP-NbNTL9 + His-NbCRWN2 + His-TYLCCNV V2
Assay: EMSA
Settings: 20 nM probe, 1 ug NTL9 + 2 ug CRWN2 + 1-3 ug V2, V2 enhances binding, Chemiluminescent EMSA Kit (Beyotime GS009), 20 or 50 nM biotinylated probe, pH and temperature not stated, recombinant protein, label: 3' biotin

TAATGCTTTAGGTGGTGAAGTATAG (double strand) [Pro-PR1-1]
binding result: binds
